This note sets out measurements from patent publication US20250243261A1.

Common to all, as to experiment: cell-based or functional assay
Experiment [1] addresses SARS-CoV-2 Wuhan Spike on pseudotyped lentivirus (SARS-CoV-2 Wuhan-Hu-1) (UniProt P0DTC2).
Experiment [2] addresses SARS-CoV-2 BA.1 Spike on pseudotyped lentivirus (SARS-CoV-2 BA.1 variant).
In experiment [3] the target is SARS-CoV-2 Beta Spike on pseudotyped lentivirus (SARS-CoV-2 Beta variant).

On to LY-1404 VH I31T IgG (antibody), for which the Wuhan pseudotyped lentivirus IC50, fold change vs WT in experiment [1] was found to be 1.3 fold.
Still for that read-out and setting: then LY-1404 VL K47E IgG (antibody), with 1.4 fold; and “LY-1404 VH V90S / VL Q39K IgG (antibody)”, with 3.5 fold.
For SA58 VH A61S / VL N95V IgG (antibody), in experiment [2], the BA.1 pseudotyped lentivirus IC50, fold change vs WT is 2.2 fold.
In the case of “LY-1404 VH S62N / VL E85A IgG (antibody)”, the Wuhan pseudotyped lentivirus IC50, fold change vs WT in experiment [1] was determined as 2.3 fold.
The same measure, in the same setting: next, “LY-1404 VH T70S / VL Q39K IgG (antibody)”: 1.8 fold.
Turning to SA58 VH T53L / VL N95V IgG (antibody), in experiment [2], the BA.1 pseudotyped lentivirus IC50, fold change vs WT is 2.3 fold.
Consider LY-1404 VL Q6S IgG (antibody), for which the Wuhan pseudotyped lentivirus IC50, fold change vs WT in experiment [1] came out at 1.6 fold.
The same measure, in the same setting: then LY-1404 VH T70S IgG (antibody), with 0.9 fold; and LY-1404 VL T5Q IgG (antibody), with 1.2 fold.
Consider SA58 VH T53L / VL M4V IgG (antibody), for which the BA.1 pseudotyped lentivirus IC50, fold change vs WT in experiment [2] was 1.1 fold.
As to LY-1404 VL Q39K IgG (antibody), in experiment [1], the Wuhan pseudotyped lentivirus IC50, fold change vs WT stood at 1.4 fold.
The same measure, in the same setting: then “LY-1404 VH D88Q_V90S_S62N_V81T_F24Y_H99Y_T70S IgG (antibody)”, with 0.5 fold.
In the case of SA58 VH Q82T / VL M4V IgG (antibody), in experiment [2], the BA.1 pseudotyped lentivirus IC50, fold change vs WT was found to be 0.9 fold.
Consider SA58 VH T53L-A61S IgG (antibody), for which the BA.1 pseudotyped lentivirus IC50, fold change vs WT in experiment [2] is 1.8 fold.
As to LY-1404 VL F51Y IgG (antibody), the Wuhan pseudotyped lentivirus IC50, fold change vs WT in experiment [1] turned out to be 1.2 fold.
As for SA58 VL S54T IgG (antibody), the BA.1 pseudotyped lentivirus IC50, fold change vs WT in experiment [2] was found to be 1.8 fold.
Regarding “LY-1404 VH D88Q_V90S_S62N_V81T_F24Y_I31T_H99Y_T70S IgG (antibody)”, the Wuhan pseudotyped lentivirus IC50, fold change vs WT in experiment [1] worked out at 0.6 fold.
With SA58 VL N95V IgG (antibody), the BA.1 pseudotyped lentivirus IC50, fold change vs WT in experiment [2] came out at 2.4 fold.
As for LY-1404 VH H99Y IgG (antibody), the Wuhan pseudotyped lentivirus IC50, fold change vs WT in experiment [1] stood at 0.6 fold.
Same read-out and setting: then LY-1404 VL A98I IgG (antibody), with 1.8 fold; and “LY-1404 VH T70S / VL E85A IgG (antibody)”, with 2.3 fold; and LY-1404 VH F24Y IgG (antibody), with 0.9 fold.
On the same count and under the same terms, next, LY-1404 VL K44E IgG (antibody): 1.2 fold; “LY-1404 VH D88Q_V90S_S62N_V81T_F24Y_I31T_T70S IgG (antibody)”: 0.9 fold.
Still for that read-out and setting: then LY-1404 VH S62N IgG (antibody), with 1.9 fold.
For SA58 VH T53L IgG (antibody), the BA.1 pseudotyped lentivirus IC50, fold change vs WT in experiment [2] came to 1.1 fold.
On to SA58 VL S85A IgG (antibody), for which the BA.1 pseudotyped lentivirus IC50, fold change vs WT in experiment [2] amounted to 2.7 fold.
Same read-out and setting: next, SA58 VL M4V IgG (antibody): 2.2 fold.
As to LY-1404 VL M49L IgG (antibody), the Wuhan pseudotyped lentivirus IC50, fold change vs WT in experiment [1] stood at 1.4 fold.
Still for that read-out and setting: next, LY-1404 VH D88Q IgG (antibody): 2.2 fold.
Consider SA58 VH A61S / VL M4V IgG (antibody), for which the BA.1 pseudotyped lentivirus IC50, fold change vs WT in experiment [2] was 1.4 fold.
As for LY-1404 VH V81T IgG (antibody), the Wuhan pseudotyped lentivirus IC50, fold change vs WT in experiment [1] stood at 1.4 fold.
SA58 VH A61S IgG (antibody): the BA.1 pseudotyped lentivirus IC50, fold change vs WT in experiment [2] amounted to 1 fold.
Regarding LY-1404 VH V90S IgG (antibody), the Wuhan pseudotyped lentivirus IC50, fold change vs WT in experiment [1] was 1.7 fold.
Same read-out and setting: next, “LY-1404 VH S62N / VL Q39K IgG (antibody)”: 2.8 fold; “LY-1404 VH V90S / VL E85A IgG (antibody)”: 2 fold.
On the same count and under the same terms, next, LY-1404 VH I105L IgG (antibody): 2.2 fold.
Still for that read-out and setting: then “LY-1404 VH D88Q_V90S_S62N_V81T_F24Y_I31T_H99Y IgG (antibody)”, with 0.5 fold.
Turning to C143 VL G53V IgG (antibody), the fold improvement in pseudovirus neutralization vs wildtype in experiment [3] is 30 fold.
Take “LY-1404 VH D88Q_V90S_S62N_V81T_I31T_H99Y_T70S IgG (antibody)”: the Wuhan pseudotyped lentivirus IC50, fold change vs WT in experiment [1] is 1.3 fold.
In the case of SA58 VH Q82T / VL N95V IgG (antibody), the BA.1 pseudotyped lentivirus IC50, fold change vs WT in experiment [2] worked out at 2.2 fold.
